Paper PMC6886523 (Nature chemical biology, 2017)

Tested on: Mtb
Type: cell-based

SMILES: N#C[C@@H]1N[C@@H](CO)[C@H]1c1ccc(-c2ccccc2F)cc1 [BRD4592, (2R,3S,4R)-3-(2′-fluoro-[1,1′-biphenyl]-4-yl)-4-(hydroxymethyl)azetidine-2-carbonitrile]
- activity against a diverse panel of Mtb clinical isolates, including drug-resistant strains: comparable activity
